Test results reported in US4346087A, “Antibacterial surface active agent containing azaalkenelactam” (priority 1979, dated 1982).

Assays:
[1] = Metal corrosion inhibition in brake fluid A, cast iron; conditions: 100°±2° C., 120±2 hours, blank -0.14
[2] = Metal corrosion inhibition in brake fluid A, brass; conditions: 100°±2° C., 120±2 hours, blank -0.20
[3] = Metal corrosion inhibition in brake fluid A, steel; conditions: 100°±2° C., 120±2 hours, blank -0.20
[4] = Metal corrosion inhibition in brake fluid A, tin-plate; conditions: 100°±2° C., 120±2 hours, blank -0.15
[5] = Metal corrosion inhibition in brake fluid A, aluminum; conditions: 100°±2° C., 120±2 hours, blank +0.07
[6] = Metal corrosion inhibition in brake fluid A, copper; conditions: 100°±2° C., 120±2 hours, blank +0.18
[7] = Table 4, azaalkenelactams […] by weight in brake fluid A
[8] = Table 5, carboxylate derivatives […] by weight in brake fluid A

| Compound | Weight change, cast iron [1, 7] [mg/cm^2] | Weight change, brass [2, 7] [mg/cm^2] | Weight change, steel [3, 7] [mg/cm^2] | Weight change, tin-plate [4, 7] [mg/cm^2] | Weight change, aluminum [5, 7] | Weight change, copper [6, 7] | Weight change, cast iron [1, 8] [mg/cm^2] | Weight change, brass [2, 8] [mg/cm^2] | Weight change, steel [3, 8] [mg/cm^2] | Weight change, tin-plate [4, 8] [mg/cm^2] | Weight change, aluminum [5, 8] | Weight change, copper [6, 8] |
| --- | --- | --- | --- | --- | --- | --- | --- | --- | --- | --- | --- | --- |
| CCCCCCCCCCCCCCNCCN1CCN=CC(C)C1=O (stereo not drawn) [Example 40, 4-tetradecylaminoethyl-6-methyl-3,6-dihydro-2H-1,4-diazepin-5-one] | -0.01 | 0 | -0.01 | -0.01 | +0.01 mg/cm^2 | 0 mg/cm^2 |  |  |  |  |  |  |
| CCCCCCCCCCCCCCCCCCNCCCN1CCCN=C(C)CC1=O [Example 37, 1-octadecylaminopropyl-4-methyl-3,6,7,8-tetrahydro-1,5-diazocin-2-one] | -0.01 | -0.03 | 0 | -0.01 | +0.01 mg/cm^2 | +0.03 mg/cm^2 |  |  |  |  |  |  |
| CCCCCC[C@@H](O)C/C=C\CCCCCCCC(=O)NCCN1CCN=CC(C)(C)C1=O [Example 64, 4-ricinolamidoethyl-6,6-dimethyl-3-hydro-2H-1,4-diazepin-5-one] | -0.02 | -0.02 | -0.01 | -0.01 | +0.02 mg/cm^2 | +0.02 mg/cm^2 |  |  |  |  |  |  |
| CCCCCCCCCCCC(=O)OCCN1CC[N+](CC(=O)[O-])=C(C)CC1=O [4-lauroyloxyethyl-7-methyl-1-azonia-4-azacyclohept-7-en-5-one-1-acetate] |  |  |  |  |  |  | -0.01 | -0.01 | -0.01 | -0.02 | 0 mg/cm^2 | 0 mg/cm^2 |
| CCCCCCCCCCCCCCNCCN1CCN=CCCC1=O [Example 53, 4-tetradecylaminoethyl-2,3,6,7-tetrahydro-1,4-diazocin-5-one] | -0.01 | -0.01 | 0 | -0.01 | +0.01 mg/cm^2 | 0 mg/cm^2 |  |  |  |  |  |  |
| CCCCCCCC/C=C\CCCCCCCC(=O)NCCN1CC[N+](CC(=O)[O-])=C(C)CC1=O [4-oleamidoethyl-7-methyl-1-azonia-4-azacyclohept-7-en-5-one-1-acetate] |  |  |  |  |  |  | -0.01 | 0 | -0.01 | -0.01 | 0 mg/cm^2 | 0 mg/cm^2 |
| CCCCCCCCCCCCN1CCC[N+](CC(=O)[O-])=C(C)CC1=O [1-dodecyl-4-methyl-1-aza-5-azoniacyclooct-4-en-2-one-5-acetate] |  |  |  |  |  |  | 0 | 0 | -0.01 | -0.01 | +0.01 mg/cm^2 | 0 mg/cm^2 |
| CCCCCCCCCc1ccc(OCC(O)CNCCNCCNCCN2CC[N+](CC(=O)[O-])=CCC(C)C2=O)cc1 (stereo not drawn) [4-nonylphenoxy(2-hydroxy)propylaminoethylaminoethylaminoethyl-6-methyl-4-aza-1-azoniacyclooct-8-en-5-one-1-acetate] |  |  |  |  |  |  | -0.02 | -0.01 | -0.02 | -0.02 | +0.02 mg/cm^2 | 0 mg/cm^2 |
| CCCCCCCCCCCCCCC(O)CNCCN1CC[N+](CC(=O)[O-])=CCCC1=O (stereo not drawn) [4-(2-hydroxyhexadecyl)aminoethyl-4-aza-1-azoniacyclooct-8-en-5-one-1-acetate] |  |  |  |  |  |  | -0.02 | -0.02 | -0.02 | -0.02 | +0.02 mg/cm^2 | -0.02 mg/cm^2 |
| CC1=NCCN(CCNC(=O)CCCCCCCCCCCCCCC(C)C)C(=O)C1 [Example 11, 4-isostearamidoethyl-7-methyl-3,6-dihydro-2H-1,4-diazepin-5-one] | -0.02 | -0.03 | -0.01 | 0 | +0.01 mg/cm^2 | +0.02 mg/cm^2 |  |  |  |  |  |  |
| CCCCCCCC(=O)OCCN1CC[N+](CC(=O)[O-])=C(C)CC1=O [4-octoyloxyethyl-7-methyl-1-azonia-4-azacyclohept-7-en-5-one-1-acetate] |  |  |  |  |  |  | -0.02 | 0 | -0.03 | -0.02 | +0.01 mg/cm^2 | +0.01 mg/cm^2 |
| CCCCCCCCCCCC(=O)NCCN1CC[N+](CC(=O)[O-])=C(C)CC1=O [4-lauramidoethyl-7-methyl-1-azonia-4-azacyclohept-7-en-5-one-1-acetate] |  |  |  |  |  |  | -0.02 | -0.01 | -0.03 | -0.03 | +0.01 mg/cm^2 | 0 mg/cm^2 |
| CCCCCCCCCCCC(=O)NCCN1CCN=CC(C)C1=O (stereo not drawn) [Example 46, 4-lauramidoethyl-6-methyl-3,6-dihydro-2H-1,4-diazepin-5-one] | -0.02 | -0.01 | -0.01 | 0 | +0.01 mg/cm^2 | +0.01 mg/cm^2 |  |  |  |  |  |  |
